Paper PMC3319563 (PLoS ONE, 2012)

Tested on: CC(C)(OO)c1ccccc1
Assay: purified protein
Conditions: co-substrate GSH

Substance | Km [mM]
AtuGSTH1-1 (Agrobacterium fabrum str. C58; F22A) | 39.6 ± 2.81
AtuGSTH1-1 (Agrobacterium fabrum str. C58; R187A) | 3.5 ± 0.66
AtuGSTH1-1 (Agrobacterium fabrum str. C58; S25A) | 17.4 ± 1.61
